Measured values from several laboratories, pooled; numbers as filed in NIAID ChemDB.

All rows: growth or infection tests; species: HIV-1; cell line: CEM + CEM/0; endpoint: EC50

ECn is the concentration giving n% inhibition of infection, replication or growth. Rows are shuffled and stem from different studies. Blank or dashed fields: not listed here.

compound | strain or isolate | method | result
CC(=O)N[C@H]1OC(CO[Si](C)(C)C(C)(C)C)C2(OS(=O)(=O)C=C2N)C1O[Si](C)(C)C(C)(C)C | - | - | >7.7 µM
COC(=O)CNP(=O)(OC[C@@H]1C=C[C@H](n2cc(C)c(=O)[nH]c2=O)O1)Oc1ccccc1 | IIIB | cytopathic effect / trypan blue | 6 µM
CC(=O)OC[C@H]1O[C@@H](n2cc(C)c(=O)n(C)c2=O)[C@H](O[Si](C)(C)C(C)(C)C)C12OS(=O)(=O)C=C2N | - | - | 17.5 ± 3.5 µM
COC(=O)C(C)NP(=O)(OC[C@@H]1C=C[C@H](n2cc(Cl)c(=O)[nH]c2=O)O1)Oc1ccccc1 | IIIB | syncytia | 0.65 µM
CC1(C)[C@@H](CO)CC[C@@]1(C)Cn1cnc2c(N)ncnc21 | - | - | >100 µg/mL
C=CCOC(=O)OC[C@H]1O[C@@H](n2cc(C)c(=O)n(C)c2=O)[C@H](O[Si](C)(C)C(C)(C)C)C12OS(=O)(=O)C=C2N | - | - | >10 µM
COC(=O)[C@H](C)NP(=O)(OC[C@@H]1C=C[C@H](n2cc(C)c(=O)[nH]c2=O)O1)Oc1ccccc1 | IIIB | syncytia | 0.18 µM
Cc1cn([C@@H]2O[C@H](COC(=O)N(C)C)C3(OS(=O)(=O)C=C3N)[C@H]2O[Si](C)(C)C(C)(C)C)c(=O)n(C)c1=O | - | - | ≥50 µM
COC(=O)CCCCCNP(=O)(OC[C@@H]1C=C[C@H](n2cc(C)c(=O)[nH]c2=O)O1)Oc1ccccc1 | IIIB | cytopathic effect / trypan blue | ≥250 µM
COC(=O)[C@H](C)NP(=O)(OC[C@H]1O[C@@H](n2cc(C)c(=O)[nH]c2=O)C[C@@H]1N=[N+]=[N-])Oc1ccccc1 | IIIB | - | 0.055 µM
CC1(C)[C@@H](CO)CC[C@@]1(C)Cn1nnc2c(N)ncnc21 | - | - | >100 µg/mL
C=C(C)C(=O)NC(=O)N[C@@H]1OC(CO[Si](C)(C)C(C)(C)C)C2(OS(=O)(=O)C=C2N)C1O[Si](C)(C)C(C)(C)C | - | - | 0.6 µM
CC1(C)[C@@H](CO)CC[C@@]1(C)Cn1cnc2c(=O)[nH]cnc21 | - | - | >100 µg/mL
Cc1cn([C@H]2C=C[C@@H](CO)O2)c(=O)[nH]c1=O | IIIB | - | 0.16 µM
CC1(C)[C@@H](CO)CC[C@@]1(C)Cn1cnc2c(Cl)ncnc21 | - | - | >14 µg/mL
COC(=O)CCNP(=O)(OC[C@@H]1C=C[C@H](n2cc(C)c(=O)[nH]c2=O)O1)Oc1ccccc1 | - | cytopathic effect / microscopy | 6 µM
C=C1O[C@@H](n2cc(C)c(=O)n(C)c2=O)[C@H](O[Si](C)(C)C(C)(C)C)[C@]12OS(=O)(=O)C=C2N | - | - | 3 µM
COC(=O)[C@H](C)NP(=O)(OC[C@@H]1C=C[C@H](n2cc(C)c(=O)[nH]c2=O)O1)Oc1ccccc1 | IIIB | cytopathic effect / trypan blue | 0.085 µM
Cc1cn([C@@H]2O[C@H](CN3CCNCC3)C3(OS(=O)(=O)C=C3N)[C@H]2O[Si](C)(C)C(C)(C)C)c(=O)n(C)c1=O | - | - | ≥50 µM
COC(=O)CCCNP(=O)(OC[C@@H]1C=C[C@H](n2cc(C)c(=O)[nH]c2=O)O1)Oc1ccccc1 | IIIB | cytopathic effect / trypan blue | ≥250 µM
Cc1cn([C@@H]2O[C@H](CN3CCN(Cc4ccccc4)CC3)C3(OS(=O)(=O)C=C3N)[C@H]2O[Si](C)(C)C(C)(C)C)c(=O)n(C)c1=O | - | - | >10 µM
COC(=O)[C@H](C)NP(=O)(OC[C@@H]1C=C[C@H](n2cc(C)c(=O)[nH]c2=O)O1)Oc1ccc(F)cc1 | IIIB | syncytia | 0.13 µM

2 of the rows above, restated:

COC(=O)CCNP(=O)(OC[C@@H]1C=C[C@H](n2cc(C)c(=O)[nH]c2=O)O1)Oc1ccccc1 ; method: cytopathic effect / microscopy ; result: 6 µM
COC(=O)C(C)NP(=O)(OC[C@@H]1C=C[C@H](n2cc(Cl)c(=O)[nH]c2=O)O1)Oc1ccccc1 ; strain or isolate: IIIB ; method: syncytia ; result: 0.65 µM